Compound potency records, mixed from different reports. Data source: NIAID ChemDB in PubChem.

All rows: growth or infection tests; agent: Herpes simplex virus 1; cells: VERO; read-out: EC50

Conditions beyond the fields shown may differ between rows. ECn is the concentration giving n% inhibition of infection, replication or growth.

smiles,strain or isolate,method,result
CC(C1=NNC(=Nc2ccc(Cl)cc2)SC1)N1C(=O)c2ccccc2C1=O,VR733,cytopathic effect,>37.03 µg/mL
O=c1[nH]c(=O)n([C@H]2C[C@H](O)[C@@H](CO)O2)cc1/C=C/Br,F-ACV-C4,plaque count,>300 µM
O=c1[nH]c(=O)n([C@H]2C[C@H](O)[C@@H](CO)O2)cc1I,KOS,plaque count,1.1 µM
CC(C1=NNC(=Nc2cccnc2)SC1)N1C(=O)c2ccccc2C1=O,VR733,cytopathic effect,>333 µg/mL
Nc1ncnc2c1ncn2[C@@H]1C[C@H](CO)[C@@H](O)[C@@H]1O,F-ACV-C4,plaque count,56 µM
CSc1nsc(-c2c(Cl)cccc2Cl)c1C#N,F strain,plaque count,>5 µM
CC(C1=NN=C(N(C(=O)c2ccccc2)c2ccccc2)SC1)N1C(=O)c2ccccc2C1=O,VR733,cytopathic effect,111 µg/mL
Cc1nc(N(C)C(=O)Cc2ccc(-c3ccccn3)cc2)sc1S(N)(=O)=O,KOS,plaque count,0.04 µM
O=C(O)P(=O)(O)O,F-FAU-C2,plaque count,28 µM
Cn1cc(C(=O)NCc2ccc(Cl)cc2)c(=O)c2cc(CN3CCOCC3)ccc21,F-M1,plaque count,>20 µM
CSc1nsc(-c2ccc(O)cc2)c1C#N,F strain,plaque count,>2 µM
CO[C@H]1C[C@H](n2cc(/C=C/Br)c(=O)[nH]c2=O)O[C@@H]1COP1(=O)OCc2cccc(C)c2O1,KUPKA (TK+),plaque count,16.7 µg/mL
COc1ccc(N=C2NN=C(C(C)N3C(=O)c4ccccc4C3=O)CS2)cc1,VR733,cytopathic effect,64.15 µg/mL
CCOC(=O)CC1OP(=O)(OC[C@H]2O[C@@H](n3cc(/C=C/Br)c(=O)[nH]c3=O)C[C@@H]2O)Oc2cccc(Cl)c21,KUPKA (TK+),plaque count,0.19 µg/mL
N#Cc1c(-c2ccccc2)s[nH]c1=S,F strain,plaque count,>60 µM
Nc1nc2c(ncn2COCCO)c(=O)[nH]1,7401H,virus yield,0.35 µg/mL
Nc1ccn([C@H]2O[C@@H](CO)[C@H](O)[C@H]2F)c(=O)n1,F-FAU-C2,plaque count,8.1 µM
Nc1nc2c(ncn2COCCO)c(=O)[nH]1,Shealey,plaque count,0.7 µM
O=c1[nH]c(=O)n([C@H]2C[C@H](O)[C@@H](COP3(=O)OCc4ccc5ccccc5c4O3)O2)cc1/C=C/Br,KUPKA (TK+),plaque count,0.25 µg/mL
Nc1nc2c(ncn2CC(CO)CCO)c(=O)[nH]1,SC16,plaque count,1.4 µM
Cc1cn([C@@H]2O[C@H](CO)[C@@H](O)[C@@H]2F)c(=O)[nH]c1=O,MGH 10,plaque count,0.8 µM
Nc1nc2c(ncn2CCCCO)c(=O)[nH]1,KJ502,plaque count,5 µM
O=c1[nH]c(=O)n([C@H]2C[C@H](O)[C@@H](COP3(=O)OCc4c(ccc5ccccc45)O3)O2)cc1/C=C/Br,KUPKA (TK+),plaque count,0.15 µg/mL
Nc1nc2c(ncn2CCCC(CO)CO)c(=O)[nH]1,SC16,plaque count,1.9 µM
CC(C1=NN=C(N(C)c2ccccc2)SC1)N1C(=O)c2ccccc2C1=O,VR733,cytopathic effect,>111 µg/mL
Cc1cn([C@@H]2O[C@H](CO)[C@@H](O)[C@@H]2F)c(=O)[nH]c1=O,F-AMAU-C2,plaque count,11 µM
O=c1[nH]c(=O)n([C@H]2C[C@H](O)[C@@H](COP3(=O)OCc4cccc(-c5ccccc5)c4O3)O2)cc1/C=C/Br,KUPKA (TK+),plaque count,0.26 µg/mL
CSc1nsc(-c2ccc(C)cc2)c1C#N,F strain,plaque count,>18 µM

For reference, 2 entries again:

O=c1[nH]c(=O)n([C@H]2C[C@H](O)[C@@H](CO)O2)cc1/C=C/Br ; strain or isolate: F-ACV-C4 ; method: plaque count ; result: >300 µM
COc1ccc(N=C2NN=C(C(C)N3C(=O)c4ccccc4C3=O)CS2)cc1 ; strain or isolate: VR733 ; method: cytopathic effect ; result: 64.15 µg/mL